Data taken from patent US20070161078A1.

Columns and labels:
[1] = molecular target: MBP.NS1 H5N1B (ESEV) (influenza A H5N1) (UniProt Q6DP28); test: G assay titration
[2] = molecular target: MBP.NS1 H5N1B (ESEV) (influenza A H5N1) (UniProt Q6DP28); test: direct binding assay titration
[3] = molecular target: MBP.NS1 H5N1B (ESEV) (influenza A H5N1) (UniProt Q6DP28); test: titration, direct binding sandwich assay

| Substance | EC50 [1] | EC50 [2] | EC50 [3] |
| --- | --- | --- | --- |
| PSD95 d1,2,3 (from UniProt P78352 59-402) | 0.3 µg/mL | 0.3 µg/mL | 0.29 µg/mL |
| DLG1 d1,2 (from UniProt Q12959 218-410) | 0.2 µg/mL | 0.4 µg/mL |  |
